The record followed here is paper PMC7486241 (Cell Host & Microbe, 2020).

The target in experiment [1] is recombinant HA of H5N1 A/Indonesia/05/2005, biotinylated (Influenza A virus A/Indonesia/05/2005 …, UniProt C5MRF2, strain, biotin). As to conditions: both partners purified.
Experiment [2] concerns the target recombinant HA of H7N9 A/Shanghai/02/2013, biotinylated (Influenza A virus A/Shanghai/02/2013 …, UniProt R4NN21, strain, biotin). As to conditions: both partners purified.

B1: 54-1G05 VL T28N/Y30A/N30aV, IgG (antibody, V domains shown)
VH: QVQLQQSGPRLVKPSQTLSLTCAISGDSVSSSSAVWTWIRQSPSRGLEWLGRTYYRSKWYDDYAVSVQGRITINPDTSKNQISLQLNSVTPDDTAVYYCARSSINIFGVFVMAMDVWGQGTAVTVSS
VL: EIVLTQSPGTLSLSPGERVTLSCRASQNVAVSYLAWYQQKPGQAPTLLIYGTSTRATGVPDRFSGSGSGTVFTLTISRLEPEDFAVYFCQQYSTSPRALTFGGGTKVEIK
Turning to B1, the binding result in experiment [1] and in experiment [2] was “binds” each time.

B2: 54-4H03 VH I96M/N99G/G100cT/S100fY, IgG (54-4H03 light chain) (antibody, V domains shown)
VH: QVQLQQSGPGLVKPSQTLSLTCAISGDSVSSNSVAWNWIRQSPSRGLEWLGRTYFRSKWYTDYAESLKSRMTINPDTSKNEFSLHLKSVTSDDTAVYYCVRGMIFGWPLTGWYFDLWGRGTLVSVSS
VL: EIVLTQSPGTLSLSPGDSATLSCRASQSVASSYLAWYQQKPGQSPRLLIYATINRAADIPDRFSGSGSGTDFALTISRLEPEDFAVYYCQQFDSSSMYTFGQGTKLEIT
Turning to B2, the binding result in experiment [1] is “binds”; in experiment [2] it was “no binding”.

B3: 54-4H03 VH I96M/N99G/G100cT/S100fY paired with the light chain from 54-1G07, IgG (antibody, V domains shown)
VH: QVQLQQSGPGLVKPSQTLSLTCAISGDSVSSNSVAWNWIRQSPSRGLEWLGRTYFRSKWYTDYAESLKSRMTINPDTSKNEFSLHLKSVTSDDTAVYYCVRGMIFGWPLTGWYFDLWGRGTLVSVSS
VL: EIVLTQSPGTLSLSPGERVTLLCRASHHVSSGYLAWYQQKPGQAPRLLIYGATNRATGIPDRFSGSGSGTDFALTISRLEPEDFAVYYCQQFDSSSMYTFGQGTKLEIK
Regarding B3, the figures for the binding result in experiment [1] and in experiment [2] were “binds” and “no binding”, respectively.
